From publication PMC6458069 (Molecular microbiology, 2019)

Sequences of proteins named here, by UniProt entry; tags and fusion partners are left off. A change or cut given only in a name is not applied to a line headed by its entry.
UniProt P0A6M2: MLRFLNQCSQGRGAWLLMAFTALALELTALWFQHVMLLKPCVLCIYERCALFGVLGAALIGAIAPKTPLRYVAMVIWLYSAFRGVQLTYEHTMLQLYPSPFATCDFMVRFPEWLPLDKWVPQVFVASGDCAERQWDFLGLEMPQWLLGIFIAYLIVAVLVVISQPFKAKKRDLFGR

Molecular target: T1, EcDsbB (Escherichia coli, UniProt P0A6M2, C49V/C8A)
T1 sequence (P0A6M2 1-176 C8A/C49V): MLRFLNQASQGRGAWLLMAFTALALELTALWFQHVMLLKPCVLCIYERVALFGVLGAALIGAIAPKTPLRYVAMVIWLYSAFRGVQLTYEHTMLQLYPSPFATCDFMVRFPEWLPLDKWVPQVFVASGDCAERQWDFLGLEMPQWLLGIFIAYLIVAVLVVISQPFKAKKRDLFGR
Experiment: In vitro ubiquinone reduction assay with purified EcDsbB
Format: biochemical, E. coli

Compound: Cn1c(=O)c([N+](=O)[O-])c(Cl)c2ccccc21 [PA3]
- IC50: 17 ± 2 µM
